Anti-infective test results gathered from many reports (values: NIAID ChemDB through PubChem).

Shared fields: target-level tests; species: HIV-1; protein: Protease; read by: fluorescence; measure: IC50

ICn is the concentration giving n% inhibition. Neighbouring rows are from separate reports.

CC(C)c1nc(CN(C)C(=O)N[C@H](C(=O)NN(Cc2ccoc2)C[C@H](O)[C@H](Cc2ccccc2)NC(=O)OCc2cncs2)C(C)C)cs1 ; value: <0.0005 µM
CC(C)(C)NC(=O)c1ccccc1C[C@@H](O)[C@H](CC1CCCCC1)NC(=O)[C@H](CC(N)=O)NC(=O)c1ccc2cccc(F)c2n1 ; value: 0.0029 µg/mL
CC(C)C[C@H](NC(=O)[C@@H](NC(=O)[C@H](Cc1c[nH]c2ccccc12)NC(=O)C(F)(F)F)C(C)C)[C@@H](O)CC(=O)N[C@H](C(=O)N[C@H](C(=O)OCc1ccccc1)C(C)C)C(C)C ; value: 0.03 µM
CCCOCCCNC(=O)[C@@H](NC(=O)[C@H](Cc1ccc(OC)c(OC)c1OC)C[C@H](O)[C@H](Cc1ccccc1)NC(=O)OC(C)(C)C)C(C)C ; value: 0.003 µM
COc1cc(CN2C(=O)N(Cc3ccc(O)c(OC)c3)N(C(=O)CCc3ccccc3)C[C@@H](O)[C@H]2Cc2ccccc2)ccc1O ; value: <0.0005 µM
CC(C)(C)NC(=O)c1ccccc1C[C@@H](O)[C@H](Cc1ccccc1)NC(=O)[C@H](CC(=O)O)NC(=O)c1ccc2ccccc2n1 ; value: 0.013 µg/mL
Cc1cccc(C)c1OCC(=O)N[C@@H](Cc1ccccc1)C[C@H](O)[C@H](Cc1ccccc1)NC(=O)COc1c(C)cccc1C ; value: 0.028 µM
CCC(Cc1cccc(NS(=O)(=O)c2ccc(C(=O)O)cc2)c1)c1cc(O)c(C(c2ccccc2)C2CC2)c(=O)o1 ; value: 1.64 µM
Nc1n[nH]c2ccc(CN3C(=O)N(Cc4ccccc4)[C@H](Cc4ccccc4)[C@H](O)CN3C(=O)CCc3ccccc3)cc12 ; conditions: pH 7.0 ; value: ~0.0005 µM
CC(C)C[C@H](NC(=O)[C@H](C)NC(=O)C[C@H](O)[C@H](CC(C)C)NC(=O)[C@@H](NC(=O)[C@H](Cc1ccc(O)cc1)NC(=O)OCc1ccccc1)C(C)C)[C@@H](O)CC(N)=O ; value: 0.3 µM
CC(C)[C@@H](NC(=O)c1cc(=O)c2ccccc2[nH]1)C(=O)N[C@@H](Cc1ccccc1)C[C@@H](O)[C@H](Cc1ccccc1)NC(=O)[C@H](NC(=O)c1cc(=O)c2ccccc2[nH]1)C(C)C ; value: 0.004 µM
COc1cc(CN2C(=O)N(Cc3ccc(O)c(OC)c3)N(C(=O)CC(C)C)C[C@@H](O)[C@H]2Cc2ccccc2)ccc1O ; value: <0.0005 µM
COc1ccc(S(=O)(=O)N(CC(C)C)C[C@@H](O)[C@H](Cc2ccccc2)NC(=O)c2cccnc2)cc1 ; value: 0.067 µM
CC(=O)N[C@@H](C)C(=O)N[C@H](C(=O)N[C@@H](Cc1ccccc1)[C@@H](O)C(=O)N[C@H]1Cc2ccc(cc2)OCCCNC(=O)[C@H](C(C)C)NC1=O)C(C)C ; value: 0.006 µM
O=C(COc1ccccc1O)N[C@@H](Cc1ccccc1)C[C@@H](O)[C@H](Cc1ccccc1)NC(=O)COc1ccccc1O ; value: 9 µM
CCC(Cc1cccc(NS(=O)(=O)c2ccc([N+](=O)[O-])cn2)c1)c1cc(O)c(C(c2ccccc2)C2CC2)c(=O)o1 ; value: 0.073 µM
CC(=O)N[C@@H](Cc1cnc[nH]1)C(=O)N[C@H](C(=O)N[C@@H](Cc1ccccc1)[C@@H](O)C(=O)N[C@H]1Cc2ccc(cc2)OCCCNC(=O)[C@H](C(C)C)NC1=O)C(C)C ; value: 0.018 µM
COC(=O)c1cc(NC(=O)c2nc3ccc(NC(=O)c4cc(NC(=O)OC(C)(C)C)cs4)cc3o2)cs1 ; value: 17.2 µM
CC(C)(C)NC(=O)c1ccccc1C[C@@H](O)[C@H](Cc1ccccc1)NC(=O)[C@H](CO)NC(=O)OCc1ccccc1 ; value: 0.008 µg/mL
CCOCCCNC(=O)[C@@H](NC(=O)[C@H](Cc1ccc(OC)c(OC)c1OC)C[C@H](O)[C@H](Cc1ccccc1)NC(=O)OC(C)(C)C)C(C)C ; value: 0.002 µM
O=C(COc1ccccc1O)N[C@@H](Cc1ccccc1)C[C@H](O)[C@H](Cc1ccccc1)NC(=O)COc1ccccc1O ; value: 7 µM
CCC(Cc1cccc(NS(=O)(=O)c2ccc(C#N)cc2)c1)c1cc(O)c(C(c2ccccc2)C2CC2)c(=O)o1 ; value: 0.89 µM
CC(C)CCN(C[C@@H](O)[C@H](Cc1ccccc1)NC(=O)OCc1ccccc1)S(C)(=O)=O ; value: <10 µM
CC(=O)N[C@H](Cc1ccc(F)cc1)C(=O)N[C@H](C(=O)N[C@@H](Cc1ccccc1)[C@@H](O)C(=O)N[C@H]1Cc2ccc(cc2)OCCCNC(=O)[C@H](C(C)C)NC1=O)C(C)C ; value: 0.009 µM
CCC(Cc1cccc(NS(=O)(=O)c2ccc(C(F)(F)F)cn2)c1)c1cc(O)c(C(c2ccccc2)C2CC2)c(=O)o1 ; value: 0.1 µM
CC(C)(C)NC(=O)c1ccccc1C[C@@H](O)[C@H](Cc1ccccc1)NC(=O)[C@H](CC(N)=O)NC(=O)c1ccc2cc(Cl)ccc2n1 ; value: 0.081 µg/mL
CC(C)c1nc(CN(C)C(=O)N[C@H](C(=O)NN(Cc2ccc(O)cc2)C[C@H](O)[C@H](Cc2ccccc2)NC(=O)OCc2cncs2)C(C)C)cs1 ; value: <0.0005 µM
COc1ccc(S(=O)(=O)N(CC(C)C)C[C@@H](O)[C@H](Cc2ccccc2)NC(=O)c2ccncc2)cc1 ; value: 0.018 µM
CC(C)CC(NC(=O)[C@@H](NC(=O)[C@H](Cc1ccc(O)cc1)NC(=O)OCc1ccccc1)C(C)C)[C@@H](O)CC(=O)N[C@@H](C)C(=O)N[C@H](CO)CC(C)C ; value: 1 µM
COCCNC(=O)[C@@H](NC(=O)[C@H](Cc1ccccc1OC)C[C@H](O)[C@H](Cc1ccccc1)NC(=O)OC(C)(C)C)C(C)C ; value: 0.015 µM
CC(C)CCN(C[C@@H](O)[C@H](Cc1ccccc1)NC(=O)OCc1ccccc1)S(=O)(=O)c1ccccc1[N+](=O)[O-] ; value: <10 µM
CC(C)c1nc(COC(=O)N[C@H](C(=O)N[C@@H](Cc2ccccc2)[C@@H](O)CN(Cc2ccc(O)cc2)NC(=O)OC(C)(C)C)C(C)C)co1 ; value: <0.0005 µM
CC(=O)N[C@@H](Cc1c[nH]c2ccccc12)C(=O)N[C@H](C(=O)N[C@@H](Cc1ccccc1)[C@@H](O)C(=O)N[C@H]1Cc2ccc(cc2)OCCOCCNC(=O)[C@H](C(C)C)NC1=O)C(C)C ; value: 0.005 µM
CC(C)c1nc(CN(C)C(=O)N[C@H](C(=O)NN(Cc2ccccc2)C[C@H](O)[C@H](Cc2ccccc2)NC(=O)OCc2cncs2)C(C)C)cs1 ; value: <0.0005 µM
COC(=O)C[C@H](O)[C@H](CC(C)C)NC(=O)[C@H](C)NC(=O)C[C@H](O)[C@H](CC(C)C)NC(=O)[C@@H](NC(=O)[C@H](Cc1ccc(O)cc1)NC(=O)OCc1ccccc1)C(C)C ; value: 0.6 µM
CC(C)CCN(C[C@@H](O)[C@H](Cc1ccccc1)NC(=O)OCc1ccccc1)S(=O)(=O)C(F)(F)F ; value: <10 µM
COc1ccc(CN(C[C@H](O)[C@H](Cc2ccccc2)NC(=O)[C@@H](NC(=O)OCc2ccccn2)C(C)C)NC(=O)OC(C)(C)C)cc1 ; value: ~0.0005 µM
COc1ccc(C[C@H](C[C@H](O)[C@H](Cc2ccccc2)NC(=O)OC(C)(C)C)C(=O)N[C@H](C(=O)N[C@@H](Cc2ccccc2)C(=O)N2CCOCC2)C(C)C)cc1 ; value: 0.004 µM
Cc1cccc(C)c1OCC(=O)N[C@@H](Cc1ccccc1)C[C@@H](O)[C@H](Cc1ccccc1)NC(=O)[C@H](NC(=O)c1cc(=O)c2ccccc2[nH]1)C(C)C ; value: 0.003 µM
CC(C)C[C@H](NC(=O)[C@H](C)NC(=O)C[C@H](O)[C@H](CC(C)C)NC(=O)[C@@H](NC(=O)[C@H](Cc1ccc(O)cc1)NC(=O)OCc1ccccc1)C(C)C)[C@@H](O)CC(=O)O ; value: 0.06 µM
CC(C)c1nc(CN(C)C(=O)N[C@H](C(=O)NN(Cc2ccccc2)C[C@H](O)[C@H](Cc2ccccc2)NC(=O)OCc2ccccc2)C(C)C)co1 ; value: <0.0005 µM
CC(C)[C@H](NC(=O)OCc1ccccn1)C(=O)N[C@@H](Cc1ccccc1)[C@@H](O)CN(Cc1ccccc1)NC(=O)OCc1cccnc1 ; value: <0.0005 µM
CC(C)(C)NC(=O)c1ccccc1C[C@@H](O)[C@H](Cc1ccccc1)NC(=O)[C@H](CC(N)=O)C(N)C(=O)c1cc(=O)c2ccccc2[nH]1 ; value: 0.0024 µg/mL
CCC(Cc1cccc(NS(=O)(=O)c2ccc(NC(C)=O)cc2)c1)c1cc(O)c(C(c2ccccc2)C2CC2)c(=O)o1 ; value: 3.24 µM
COc1cc(CN2C(=O)N(Cc3ccc(O)c(OC)c3)N(C(=O)CCc3ccc(O)cc3)C[C@@H](O)[C@H]2Cc2ccccc2)ccc1O ; value: <0.0005 µM
COc1cccc(C[C@H](C[C@H](O)[C@H](Cc2ccccc2)NC(=O)OC(C)(C)C)C(=O)N[C@H](C(=O)N[C@@H](Cc2ccccc2)C(=O)N2CCOCC2)C(C)C)c1 ; value: 0.008 µM
CC(C)c1nc(COC(=O)N[C@H](C(=O)N[C@@H](Cc2ccccc2)[C@@H](O)CN(Cc2ccc(O)cc2)NC(=O)OC(C)(C)C)C(C)C)co1 ; value: <0.0005 µM
COc1ccc(S(=O)(=O)N(CC(C)C)C[C@@H](O)[C@H](Cc2ccccc2)NC(=O)c2cc(C)ccc2C)cc1 ; value: 0.007 µM

For reference, 3 entries again:

{"structure": "CC(C)C[C@H](NC(=O)[C@H](C)NC(=O)C[C@H](O)[C@H](CC(C)C)NC(=O)[C@@H](NC(=O)[C@H](Cc1ccc(O)cc1)NC(=O)OCc1ccccc1)C(C)C)[C@@H](O)CC(=O)O", "value": "0.06 µM"}
{"structure": "CC(C)c1nc(COC(=O)N[C@H](C(=O)N[C@@H](Cc2ccccc2)[C@@H](O)CN(Cc2ccc(O)cc2)NC(=O)OC(C)(C)C)C(C)C)co1", "value": "<0.0005 µM"}
{"structure": "CC(C)c1nc(CN(C)C(=O)N[C@H](C(=O)NN(Cc2ccc(O)cc2)C[C@H](O)[C@H](Cc2ccccc2)NC(=O)OCc2cncs2)C(C)C)cs1", "value": "<0.0005 µM"}